We go through four substances from patent publication US20220218837A1, “DRUG CONJUGATE” (priority 2018, published 2022).

The subject of assay [1] is MDA-MB-468 cells (EGFR++/HER2-/CD71+). The assay can be described thus: Cell killing / cell viability, MDA-MB-468 cells. The class given is cell-based, human. Particulars: titrated + fixed 10 pM CD71mab-saporin.
Assay [2] relates to human A431 tumor cells (xenograft; high EGFR, medium CD71, low HER2). The assay can be described thus: A431 xenograft mouse tumor model, tumor volume. The class given is in vivo. The settings on record: Balb/c nude mice, sub-optimal ADC dose, tumor ~170-180 mm^3 at start. As to the method: Female Balb/c nude mice were injected subcutaneously with a suspension of human A431 tumor cells. Under the skin of the mice, a human epidermal carcinoma developed in the xenograft animal tumor model. After injection of the tumor cells, the xenograft tumor was allowed to develop to a size of approximately 170-180 mm^3. The A431 tumor cells have the following characteristics: high EGFR expressors, medium CD71 expressors, low HER2 expressors.
In Table A, the results of the treatment of control mice and tumor-bearing mice are presented. Tumor-bearing mice were treated with the indicated antibodies directed to either human Her2/neu, human EGFR, or human CD71, which are cell-surface receptors on the xenograft tumor. Cetuximab was covalently conjugated with saponin SO1861. […] The ADCs trastuzumab-saporin (covalent conjugate) and anti-CD71 mAb (OKT-9, IgG)—saporin (covalent conjugate) were tested for their tumor-attacking efficacy in the mice, measured as tumor volume in time after start of the treatment with the ADCs. The dose of the ADCs was sub-optimal in the tumor model. […]
The conjugate was tested in a A431 (EGFR^++) xenograph mouse tumor model for EGFR tumor targeted cell killing as illustrated in FIG. 9-4. Dosings started at day 12 when tumors reached ˜150 mm^3 in size and tumor volume was determined after every dosing.

Assay [3] concerns SK-BR-3 cells (HER2++/EGFR+/-/CD71+). The experiment in a line: Cell killing / cell viability, SK-BR-3 cells. The class given is cell-based, human.

Turning to “Cetuximab-Lys-(dendron(-L-SO1861)^4)^4,4: dendron(-L-SO1861)^4 conjugated to lysines of cetuximab”, in assay [1], the IC50 cell killing result is given as “strong enhancement of the cell killing activity”.
Take “Cetuximab-SO1861 (covalent conjugate): SO1861-EMCH covalently coupled to reduced cysteines of cetuximab”: in assay [2], the “tumor size (volume)” value came out at 2000 mm^3.
On to “trastuzumab-(L-SO1861)^3,8: trastuzumab with labile SO1861, control conjugate”, for which, in assay [3] (substance alone, no partner), the IC50 cell killing result is “not observed”.
Turning to “trastuzumab-Lys-(dendron(-L-SO1861)^4)^4,7: dendron(-L-SO1861)^4 conjugated to lysines of trastuzumab”, the IC50 cell killing entry in assay [3] (titrated + fixed 10 pM CD71mab-saporin) is on record as “strong cell killing activity”.
